Pooled drug test results. Numbers come from NIAID ChemDB, via PubChem.

Percent inhibition refers to the dose given; in toxicity tests it is the harm to the cells.

SMILES,measure,protein,setting,strain or isolate,species,method,cells,tested at,test,value
N#Cc1c(SCCBr)nsc1-c1ccccc1,EC50,-,-,-,Encephalomyocarditis virus,plaque count,L-929,-,culture,>25 µg/mL
Nc1ncnc2c1ncn2[C@H]1CC[C@@H](CO)O1,CC50,-,-,-,-,XTT,MT-4,-,toxicity,1493 µM
NC1=NCCN1[N+](=O)[O-],MIC bound,-,-,H37Rv,Mycobacterium tuberculosis,resazurin,-,-,culture,>6.25 µg/mL
CCOC(=O)P(=O)(O)OC[C@H]1O[C@@H](n2cc(C)c(=O)[nH]c2=O)C[C@@H]1F,CC50,-,-,-,-,trypan blue,H9,-,toxicity,>100 µM
CCN(CC)CCOC(=O)C(O)(c1ccccc1)c1ccco1,inhibition,-,-,H37Rv,Mycobacterium tuberculosis,-,-,6.25 µg/mL,culture,2%
O=[N+]([O-])c1ccc(Cn2nnc(-c3cc([N+](=O)[O-])cc([N+](=O)[O-])c3)n2)cc1,MIC,-,21 d,6509/96,Mycobacterium kansasii,-,-,-,culture,4 µM
Cc1cn([C@H]2C[C@H](F)[C@@H](CO)O2)c(=O)[nH]c1=O,EC50,-,-,-,HIV-1,RT activity,MT-4,-,culture,0.008 µM
Cc1cn([C@H]2C[C@H](F)[C@@H](COP(=O)(O)C(F)Cl)O2)c(=O)[nH]c1=O,CC50,-,-,-,-,trypan blue,H9,-,toxicity,>100 µM
CNP1(NC)=NP(Cl)(Cl)=NP(N)(N)=N1,MIC,-,-,H37Rv,Mycobacterium tuberculosis,BACTEC,-,-,culture,≥128 µg/mL
Cc1c([N+](=O)[O-])c(C)c(S(=O)(=O)c2c(C)c([N+](=O)[O-])c(C)c([N+](=O)[O-])c2C)c(C)c1[N+](=O)[O-],IC50,Integrase,-,-,HIV-1,3′ processing,-,-,target,>100 µM
Cc1cn([C@H]2C=C[C@@H](COP(=O)(O)F)O2)c(=O)[nH]c1=O,CC50,-,-,-,-,XTT,PBMC,-,toxicity,571 µM
C(/C=C/c1ccccc1)=NCCNCCN=C/C=C/c1ccccc1.[N-]=[N+]=[N][Hg][N]=[N+]=[N-],zone,-,-,-,Aspergillus niger,agar diffusion,-,10000 µg/mL,culture,32 mm
O=C(Nc1ncc([N+](=O)[O-])s1)c1cc([N+](=O)[O-])cc([N+](=O)[O-])c1,MIC bound,-,-,H37Rv,Mycobacterium tuberculosis,BACTEC,-,-,culture,>12.5 µg/mL
Nc1ccn([C@H]2CC[C@@H](COP(=O)(O)F)O2)c(=O)n1,EC50,-,-,-,HIV-1,p24,PBMC,-,culture,<0.08 µM
O=[N+]([O-])c1cccc2c1no[n+]2[O-],MIC bound,-,-,H37Rv,Mycobacterium tuberculosis,resazurin,-,-,culture,<6.25 µg/mL
Cc1cn([C@H]2C[C@H](N=[N+]=[N-])[C@@H](COP(=O)(O)F)O2)c(=O)[nH]c1=O,EC50,-,-,IIIB,HIV-1,-,CEM + CEM-SS,-,culture,0.005 µM

Repeating the final 2 entries:

SMILES | measure | protein | setting | strain or isolate | species | method | cells | tested at | test | value
O=[N+]([O-])c1cccc2c1no[n+]2[O-] | MIC bound | - | - | H37Rv | Mycobacterium tuberculosis | resazurin | - | - | culture | <6.25 µg/mL
Cc1cn([C@H]2C[C@H](N=[N+]=[N-])[C@@H](COP(=O)(O)F)O2)c(=O)[nH]c1=O | EC50 | - | - | IIIB | HIV-1 | - | CEM + CEM-SS | - | culture | 0.005 µM

ECn: concentration that inhibits the pathogen or its effect by n%. Zone: diameter of growth inhibition. ICn: concentration for n% inhibition. CCn is the concentration with n% toxicity to the cells. Neighbouring rows are from separate reports. MIC bound comes from a single tested concentration. An empty or dashed field is not shown.